Data on one sequence can be found in patent US20170022553.

The series concerns HIV-1 reverse transcriptase (HIV-1). The series is described as follows: BLI. The following applies: 3' inverted dT on template; requires NNRTI compound 7 (40 uM) or 18 (80 uM) plus correct dNTP; 11 mM MgCl2, 160 mM KCl, 30 C; no appreciable peaks without …; purified recombinant protein; protein details: Worthington Biochemical; label: 5' biotin on template.

The exact form of at least one protein or probe is not confirmed.

On to “GTGAGCCTGCAATCCCTGCCCCGGTTCATCCTGCTGGAGCTCATGGCGGG / CCCGCCATGAGCTC [ALK wild-type 4460-4509S/4496-4509AS primer-template]”, for which the binding result is listed as “binds”.
